Measurements: patent US6548476B1, “Dimeric inhibitors of influenza neuraminidase” (priority 1999, dated 2003)

Tested on: influenza A virus
Assay: Inhibition of influenza A virus replication (cytopathic effect) in MDCK cells
Settings: comparison of the Table 2 results with monomer (7) or compound (A)

| Compound | activity against influenza compared with reference compounds (in words) |
| --- | --- |
| CC(=O)N[C@H]1[C@H]([C@H](OC(=O)NCCCCCCNC(=O)NCCCCCCCCCCCCNC(=O)NCCCCCCNC(=O)O[C@@H]([C@@H]2OC(C(=O)O)=C[C@H](NC(=N)N)[C@H]2NC(C)=O)[C@H](O)CO)[C@H](O)CO)OC(C(=O)O)=C[C@@H]1NC(=N)N [(3), Bis-[7-(6′-hexyleneureodo)-carbamoyloxy-5-acetamido-4-guanidino-2,3,4,5-tetradeoxy-D-glycero-D-galacto-non-2-enopyranosonic acid]] | more active against influenza than the monomeric ligand molecule (7) |
| CC(=O)N[C@H]1[C@H]([C@H](OC(=O)NCCCCCCNC(=O)CNC(=O)CNC(=O)CNC(=O)NCCCCCCNC(=O)NCC(=O)NCC(=O)NCC(=O)NCCCCCCNC(=O)O[C@@H]([C@@H]2OC(C(=O)O)=C[C@H](NC(=N)N)[C@H]2NC(C)=O)[C@H](O)CO)[C@H](O)CO)OC(C(=O)O)=C[C@@H]1NC(=N)N [(4)] | more active against influenza than the monomeric ligand molecule (7) |
